PSTVd loop 6 mutant pool in Nicotiana benthamiana

PSTVd intermediate strain, loop 6: wild type UGACCGCGAG, pool pattern UNNNCGNNNG; upper and lower strand joined, each 5' to 3', the first 5 letters being the upper strand, closing pairs included.

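A pool of all variants was put on leaves of three Nicotiana benthamiana plants. Progeny were sequenced from the inoculated region (day 5), the margin of the inoculated leaf (day 10) and systemic leaves (day 12).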

Numbers give reads per thousand; 0 = not seen among the reads, higher = more abundant. Each value is the mean of three plants. "Pool" is the share in the plasmid pool used as inoculum, on the same scale. The inoculated region was read from the minus strand, the other sites from the plus strand. Sequences that differ at fixed positions probably stem from PCR or sequencing errors, and defective variants can be carried along by functional ones. With 36,220-57,551 reads a sample, very low values are single reads. Wild type was 20.7 per thousand in the pool and the most common sequence in every sample (inoculated region 195, 198, 203; leaf margin 629, 591, 734; systemic leaves 942, 870, 868).

sequence,pool,inoculated region,leaf margin,systemic leaves
UAAACGGUGG,0.235,0.0710,0.00920,0
UAACCGUUGG,0.235,0.196,0.00773,0
UAAGCGAAGG,0.183,0.0594,0,0
UAAGCGUCUG,0.261,0.602,0.104,0
UACACGGUAG,0.366,0.0773,0,0
UACACGGUUG,0.196,0.0826,0,0
UACUCGUGAG,0.170,0.0766,0.0155,0
UAGCCCUGGG,0.0131,0,0,0
UAGCCGUAAG,0.288,0.0717,0.00920,0
UAGGCGACCG,0.170,0.0892,0,0
UAGGCGCGAG,0.353,0.154,0.0460,0.0265
UAUACGGAUG,0.301,0.113,0,0
UAUACGUAUG,0.458,0.154,0.101,0
UAUCCGUCCG,0.170,0.0842,0,0
UAUUCGGCUG,0.392,0.658,0.0866,0.0405
UCAACGGUUG,0.170,0.0882,0.00773,0
UCAACGUUUG,0.301,0.0771,0.0169,0.00684
UCACCGCCAG,0.118,0.767,0.0718,0
UCACCUGUCC,0.0131,0,0.00920,0.00673
UCAUCGGCAG,0.144,0.0715,0,0
UCGACGACCG,0.261,0.0781,0.0155,0
UCGCCGAUGG,0.418,0.125,0.0176,0
UCGGCGUGGG,0.314,0.0482,0,0
UCGUCGGAAG,0.183,0.119,0,0
UCUACCUUGG,0.0131,0,0,0
UCUGCGCCAG,0.288,0.0840,0.00920,0
UCUGCGCCCG,0.471,0.0954,0,0.00684
UCUUCGGGUG,0.261,0.0721,0,0
UGAACGGCAG,0.144,3.80,0.946,1.91
UGACAGGAGG,0.0131,0,0,0
UGACCGGGGG,0.0392,0.114,0.107,0.0136
UGACCGUCUG,0.458,0.353,0.416,0.214
UGAGCGGGCG,0.144,0.0533,0.0247,0
UGAGCGGUCG,0.301,0.107,0,0
UGAUCGAGAG,0.288,0.638,0.0859,0
UGAUCGCGUG,0.196,0.0942,0.0161,0
UGAUCGGUUG,0.209,0.0887,0.00773,0.00599
UGCGCGCUCG,0.196,0.0960,0,0.00599
UGUUCGAUGG,0.418,0.0717,0.00773,0
UGUUCGCUUG,0.314,0.148,0,0
UUACCGUCUG,0.327,0.150,0.0155,0
UUAGCGCGCG,0.222,0.0599,0.00773,0
UUAUCGCUUG,0.222,0.0716,0,0
UUAUCGUGAG,0.418,0.114,0.00773,0
UUCCCGACUG,0.222,0.107,0,0
UUCCCGGACG,0.144,0.0893,0,0
UUGCCGCCGG,0.170,0.0596,0.0184,0
UUUGCGAUGG,0.222,0.0706,0,0
UUUGCGCUCG,0.209,0.0713,0.00773,0
UUUGCGGGGG,0.157,0.0652,0,0
UUUGCGGUAG,0.235,0.108,0,0
UUUUCGAAUG,0.353,0.0766,0,0
UUUUCGUGUG,0.248,0.0597,0,0

A selection of 3 entries from above:

| sequence | pool | inoculated region | leaf margin | systemic leaves |
|---|---|---|---|---|
| UUCCCGGACG | 0.144 | 0.0893 | 0 | 0 |
| UGAUCGAGAG | 0.288 | 0.638 | 0.0859 | 0 |
| UCAACGGUUG | 0.170 | 0.0882 | 0.00773 | 0 |

Source: Wu et al. 2024 (doi:10.1371/journal.ppat.1012142), supplementary data.